Earlier results on one substance are cited in PMC4413526 (2014).

For the series the following is noted: 800/100 mg once daily, antiretroviral-naïve patients; cited from earlier work.

darunavir/ritonavir: the “Darunavir AUC24h, mean [SD]” value is 93,026 [27,050] ng•h/ml and the “Darunavir C0h, mean [SD]” value was 2282 [1168] ng/ml.
